Results of unrelated studies side by side (data: NIAID ChemDB).

All rows: whole-cell or culture tests; agent: HIV-1; cells: HeLa; endpoint: EC50

Rows are shuffled and stem from different studies. ECn is the concentration giving n% inhibition of infection, replication or growth. Blank or dashed fields: not listed here.

smiles | strain or isolate | changes | method | setting | result
Cn1c2ccccc2c2c1cc(C#N)c(=O)n2-c1ccc([N+](=O)[O-])cc1 | NL4-3 WT |  | luciferase |  | 0.0451 µM
C#C[C@]1(CO)O[C@@H](n2cc(I)c(=O)[nH]c2=O)C[C@@H]1O |  | RT-M184V | β-galactosidase |  | 0.21 µM
CCn1nc(Cc2ccc(C#N)cc2)cc1C1CCN(C[C@H]2CN([C@@H](C(=O)O)C3CCCCC3)C[C@@H]2c2cccc(F)c2)CC1 | BaL |  | β-galactosidase | 50% human serum | <0.011 µM
COc1ccc(-n2c(SCC(=O)Nc3ccc(S(N)(=O)=O)cc3Cl)nnc2C(F)(F)F)c2ccccc12 |  | Y188L |  |  | 0.014 µM
CC(=O)Nc1cc(C#N)cc(C(=O)c2cc(Cl)ccc2OCC(=O)Nc2ccc(S(N)(=O)=O)cc2C)c1 |  | WTRVA |  |  | 0.06 µM
CCn1nc(Cc2ccc(O)cc2)cc1C1CCN(C[C@H]2CN([C@@H](C(=O)O)C3CCCCC3)C[C@@H]2c2cccc(F)c2)CC1 | BaL |  | β-galactosidase | 50% human serum | <0.033 µM
Cc1ccc2c(C)cccc2c1-n1c(C)nnc1SCC(=O)Nc1ccccc1Br |  | Y188L |  |  | 0.331 µM
Cc1cc(S(N)(=O)=O)ccc1NC(=O)COc1ccc(Cl)cc1C(=O)c1cc(C#N)cc(OCF)c1 |  | K103N |  |  | 0.0016 µM
COC(=O)N[C@H](C(=O)N[C@@H](Cc1ccccc1)[C@@H](O)CN(Cc1ccc(-c2ccccn2)cc1)NC(=O)[C@@H](NC(=O)OC)C(C)(C)C)C(C)(C)C | NL4-3 WT 43XCS |  | β-galactosidase |  | 0.0022 µM
CNC(=O)c1cc(C#N)cc(C(=O)c2cc(Cl)ccc2OCC(=O)Nc2ccc(S(N)(=O)=O)cc2C)c1 |  | V106A |  |  | >2 µM
Cc1nnc(SCC(=O)Nc2ccc(S(N)(=O)=O)cc2Cl)n1-c1cccc2cc(Br)cnc12 |  | Y188L |  |  | 0.191 µM
C[C@H](Cn1cnc2c(N)ncnc21)OCP(=O)(O)O | Recombinant | RT-M41L S68N G112S M184V | luciferase |  | 0.278 µM
Cc1ccc(-n2c(SCC(=O)Nc3ccc(S(N)(=O)=O)cc3Cl)nnc2C(F)(F)F)c2ccccc12 |  | Y188L |  |  | 0.025 µM
CCOc1ccc(Cc2cc(C3CCN(C[C@H]4CN([C@@H](C(=O)O)C(C)C)C[C@@H]4c4cccc(F)c4)CC3)n(CC)n2)cc1F | BaL |  | β-galactosidase | 50% human serum | <0.1 µM
Nc1ccn([C@H]2C[C@H](O)[C@](CO)(CF)O2)c(=O)n1 | RT-M41L T69SSG T215Y | RT M41L T69SSG insertion T215Y | β-galactosidase |  | 0.066 µM
CC[C@@H](C)[C@H](C(=O)O)N1C[C@H](CN2CCC(c3cc(Cc4cccc(CN)c4)nn3CC)CC2)[C@@H](c2cccc(F)c2)C1 | BaL |  | β-galactosidase |  | <0.0037 µM
Cc1cc(S(N)(=O)=O)ccc1NC(=O)COc1ccc(Cl)cc1C(=O)c1cc(C#N)cc(N(C)C)c1 |  | K103N |  |  | 0.0013 µM
N#Cc1cc2[nH]c3ccccc3c2n(-c2ccc([N+](=O)[O-])cc2)c1=O | NL4-3 WT |  | luciferase |  | 0.1769 µM
Cc1ccc2cccnc2c1-n1c(C)nnc1SCC(=O)Nc1ccc(S(N)(=O)=O)cc1Cl |  |  |  |  | 0.001 µM
C#C[C@]1(CO)O[C@@H](n2cc(C)c(=O)[nH]c2=O)C[C@@H]1O | RT-M41L/T215Y | RT-M41L T215Y | β-galactosidase |  | 0.43 µM
CCn1nc(Cc2cccnc2)cc1C1CCN(C[C@H]2CN([C@@H](C(=O)O)C(C)C)C[C@@H]2c2cccc(F)c2)CC1 | BaL |  | β-galactosidase |  | <0.011 µM
Cc1ccc2c(C)ccc(-n3c(C)nnc3SCC(=O)Nc3ccccc3Br)c2c1 |  | Y188L |  |  | 0.012 µM

Repeating the final 3 entries:

smiles | strain or isolate | changes | method | setting | result
C#C[C@]1(CO)O[C@@H](n2cc(C)c(=O)[nH]c2=O)C[C@@H]1O | RT-M41L/T215Y | RT-M41L T215Y | β-galactosidase |  | 0.43 µM
CCn1nc(Cc2cccnc2)cc1C1CCN(C[C@H]2CN([C@@H](C(=O)O)C(C)C)C[C@@H]2c2cccc(F)c2)CC1 | BaL |  | β-galactosidase |  | <0.011 µM
Cc1ccc2c(C)ccc(-n3c(C)nnc3SCC(=O)Nc3ccccc3Br)c2c1 |  | Y188L |  |  | 0.012 µM